Vif 1203: effect of single changes on growth against APOBEC3G

From the data files of Langley et al. 2025, preprint, doi:10.1101/2025.10.20.683452.

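A pool of vif mutants was passaged twice, 72 h each, on SupT1 cells that express APOBEC3G. Frequencies after the second round, in three biological replicates, were compared with the merged pool after the first round.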

Vif of 1203 (a subtype B primary isolate), residues 12-115; positions count from the first residue of the whole protein:
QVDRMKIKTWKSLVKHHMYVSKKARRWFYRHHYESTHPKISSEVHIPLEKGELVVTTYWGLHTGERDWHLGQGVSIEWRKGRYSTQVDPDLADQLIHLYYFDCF

Values are log2 enrichment relative to wild type (0); lower means weaker defence against APOBEC3G and poorer growth. Substitutions are written as wild-type residue, site number, new residue. All changes here are to valine. The median of three replicates is given. Input reads are the counts in the merged round-one pool, before selection. Replicates agree only moderately (rank correlation about 0.4-0.65); scores from under about 50 input reads tend to be too high. Positive scores are uncertain; some enriched variants did not exclude APOBEC3G in a separate test. Not every substitution is listed.

D14V (input reads 23) read -0.99. M16V (input reads 17) gave 0.21. For K17V (input reads 251) the result was -1.62. I18V (input reads 138) gave -2.03. With T20V (input reads 725) the assay gave -1.91. K22V (input reads 36) read 0.48. S23V (input reads 285) read -2.06.

With L24V (input reads 195) the assay gave -1.94. K34V (input reads 698) read -2.42. R36V (input reads 59) gave 0.44. With R37V (input reads 24) the assay gave -0.31. With S46V (input reads 98) the assay gave 3.10. P49V (input reads 821) gave -1.74. K50V (input reads 907) gave -1.89.

S52V (input reads 357) gave -1.94. E54V (input reads 24) gave 0.16. With P58V (input reads 27) the assay gave 3.80. With E60V (input reads 231) the assay gave -2.35. E63V (input reads 187) read -2.66. With W70V (input reads 344) the assay gave -2.77. L72V (input reads 19) read -1.13.

T74V (input reads 152) gave -2.46. With G75V (input reads 29) the assay gave 0.27. With E76V (input reads 17) the assay gave 0.64. For R77V (input reads 29) the result was -1.89. With W79V (input reads 301) the assay gave -2.18. L81V (input reads 29) read -1.94. With G84V (input reads 161) the assay gave -2.21.

For I87V (input reads 44) the result was -3.88. With W89V (input reads 315) the assay gave -2.53. For G92V (input reads 108) the result was 0.04. With Q97V (input reads 360) the assay gave -2.28. With D101V (input reads 139) the assay gave -3.76. For Q105V (input reads 126) the result was -2.70. For I107V (input reads 91) the result was -2.21.

L109V (input reads 141) gave -1.46. For F112V (input reads 790) the result was -0.95. For C114V (input reads 853) the result was -3.14. F115V (input reads 55) gave -0.64.

Extract of 3 entries:

* R37V (input reads 24) = -0.31
* G84V (input reads 161) = -2.21
* T20V (input reads 725) = -1.91